Compound potency records, mixed from different reports. Data source: NIAID ChemDB in PubChem.

All rows: host cell toxicity; measure: CC50

Rows are shuffled and stem from different studies.

compound | read by | cell line | result
Cc1cccc2c1OP(=O)(OC[C@H]1O[C@@H](n3cc(/C=C/Br)c(=O)[nH]c3=O)C[C@@H]1O)OC2 | - | HELF | >128 µg/mL
COc1cc2c(cc1O)[C@@H]1Cc3ccc(OC)c(O)c3CN1CC2 | - | Vero cells | >20 µg/mL
O=[N+]([O-])c1c(Cl)ncnc1NN1CC[N+]2(CC1)CC[N+]1(CCN(Nc3ncnc(Cl)c3[N+](=O)[O-])CC1)CC2 | - | GMK | 715.1 µg/mL
NC(=Nc1ccc(S(=O)(=O)Nc2cnc3ccccc3n2)cc1)/N=C(\N)Nc1ccc(Br)cc1 | - | VERO | >62.5 µg/mL
COc1cc2c(cc1OC)CN(Cc1ccc(O)cc1)CC2 | - | Vero cells | >20 µg/mL
CC[CH2][Sn]([Br])([Br])[CH2]CC.c1cnc2c(c1)ccc1cccnc12 | - | VERO | 0.25 µg/mL
O=c1cc(-c2ccc(O)c(-c3c(O)cc4oc(-c5ccc(O)cc5)cc(=O)c4c3O)c2)oc2cc(O)cc(O)c12 | visual reading | BSC-1 | <14 µg/mL
CC1(C)[C@@H](O[C@H]2O[C@H](C(=O)O)[C@@H](O)[C@H](O)[C@H]2O[C@@H]2O[C@H](C(=O)O)[C@@H](O)[C@H](O)[C@H]2O)CC[C@]2(C)[C@H]3C(=O)C=C4[C@@H]5C[C@@](C)(C(=O)O)CC[C@]5(C)CC[C@@]4(C)[C@]3(C)CC[C@@H]12 | WST | Huh7.5 | 560 µg/mL
Cc1cccc(C(=O)Nc2cccc(Cn3nc(C(N)=O)c4ccccc43)c2)c1 | MTT | Huh7.5.1 | >10 µM
CC(C)Nc1nc2cc(Cl)c(Cl)cc2n1[C@H]1O[C@@H](CO)[C@H](O)[C@@H]1O | - | Akata | 93 µM
C[C@@]1(O)[C@H](O)[C@@H](CO)O[C@H]1n1ccc(N)nc1=O | - | RFP-NLS-IPS | >300 µM
Cc1[nH]nc(-c2cccnc2)c1N=NN(C)C | - | VERO | 0.44 µg/mL
CC(=O)CCC(=O)O[C@H]1C[C@H](n2cc(/C=C/Br)c(=O)[nH]c2=O)O[C@@H]1COP1(=O)OCc2cccc(C)c2O1 | - | HELF | 128 µg/mL
Cc1nc(N2CCC[N+]3(CC2)CC[N+]2(CCCN(c4nc(C)nc5c4no[n+]5[O-])CC2)CC3)c2c(no[n+]2[O-])n1 | - | GMK | >291.4 µg/mL
C#CCNC1=C(C)C(=O)C2=C(C1=O)[C@@H](COC(N)=O)[C@@]1(OC)[C@H]3N[C@H]3CN21 | - | VERO | 2.7 µg/mL
O=[N+]([O-])c1cc(C(F)(F)F)ccc1N1CC[N+]2(CC1)CC[N+]1(CCN(c3ccc(C(F)(F)F)cc3[N+](=O)[O-])CC1)CC2 | - | GMK | >296.1 µg/mL
CCC[CH2][Sn]([Br])([I])[CH2]CCC.c1cnc2c(c1)ccc1cccnc12 | - | VERO | 0.11 µg/mL
COc1cc2oc(=O)c(-c3ccc(O)cc3O)cc2c(OC)c1CC=C(C)C | WST | Huh7.5 | 25 µg/mL
OC[C@@H]1C[C@@H](O)[C@H](n2cnc3c(NC4CCCCC4)nccc32)O1 | - | Sheep chondrocytes G81092 | >400 µM
Cc1cc(N/N=C/c2ccccn2)nc2ccccc12 | - | VERO | >10 µg/mL
COc1cc(-c2ccccc2)c(OC)c(OC)c1O | XTT / absorbance | 1A2 | 292 µM
O=c1[nH]c(=O)n(C2C=CC(O)C2)cc1Nc1ccc(Oc2ccccc2)cc1 | MTT | Huh7 cells | >50 µg/mL
CC1OP(=O)(OC[C@H]2O[C@@H](n3cc(/C=C/Br)c(=O)[nH]c3=O)C[C@@H]2O)Oc2cccc(Cl)c21 | - | HELF | >128 µg/mL
C[C@H](NC(=O)[C@@H](O)c1cc(F)cc(F)c1)C(=O)N[C@@H]1C(=O)N(C)c2ccccc2-c2ccccc21 | - | RFP-NLS-IPS | >10 µM
CC(O)(Cn1cnc2c(N)ncnc21)P(=O)(O)O | - | HB611 | 92 µM
O=C(NN1C(=O)CS(=O)(=O)C1c1ccc(C(F)(F)F)cc1)c1ccncc1 | - | VERO | >62.5 µg/mL
OC[C@@H](O)[C@@H]1NC[C@H](O)[C@H]1O | - | Karpas 45 cells | >50 µg/mL
Cc1ccc(NC(=O)c2cc([N+](=O)[O-])cc([N+](=O)[O-])c2)cc1Cl | - | VERO | >10 µg/mL
CC(C)=CC[C@H]1C[C@@]2(C[C@H]3CCC(C)(C)C=C3C)C(=O)[C@](C(=O)c3ccccc3)(C(=O)C3=C2OC(C)(C)CC3)C1(C)C | sulforhodamine / absorbance | ASK (Atlantic salmon kidney) | >50 µM
CC1(C)[C@@H](O)CC[C@]2(C)[C@H]3C(=O)C=C4[C@@H]5C[C@@](C)(C(=O)O)CC[C@]5(C)CC[C@@]4(C)[C@]3(C)CC[C@@H]12 | WST | Huh7.5 | 77.4 µg/mL
Nc1cc(Cl)nc2c1ncn2[C@@H]1O[C@H](CO)C[C@H]1O | MTT | Sheep chondrocytes G81092 | >400 µM
O=c1[nH]c(=O)n([C@H]2C[C@H](O)[C@@H](CO)O2)cc1/C=C/Br | - | SupT1 | 20 µg/mL
CC(=O)O[C@H]1C[C@H](n2cc(/C=C/Br)c(=O)[nH]c2=O)O[C@@H]1COP1(=O)OCc2cccc(C)c2O1 | - | HELF | >128 µg/mL
NC(=O)c1nn(Cc2cccc(NC(=O)c3ccccc3[N+](=O)[O-])c2)c2ccccc12 | MTT | Huh7.5.1 | >10 µM
C=CC(C)(C)c1cc(/C=C/C(=O)c2ccc(O)cc2)c(OC)cc1O | WST | Huh7.5 | 20 µg/mL
CCCCc1ccc(Nc2c[nH]c(=O)[nH]c2=O)cc1 | MTT | A549 cells | >50 µg/mL
CCCN(CCC)c1ccc(N=Nc2ccccc2C(=O)O)cc1 | - | VERO | 5 µg/mL
CC(C)=CC[C@H]1C[C@@]2(C[C@H]3CCC(C)(C)C=C3C)C(=O)[C@](C(=O)c3ccccc3)(C(=O)C3=C2OC(C)(C)C=C3)C1(C)C | sulforhodamine / absorbance | HT-29 | >50 µM
Cc1cc(Cl)c([N+](=O)[O-])c(N2CC[N+]3(CC2)CC[N+]2(CCN(c4nc(C)cc(Cl)c4[N+](=O)[O-])CC2)CC3)n1 | - | GMK | >313.3 µg/mL
CO[C@H]1/C=C/O[C@@]2(C)Oc3c(C)c(O)c4c(O)c(c(/C=N/N5CCN(C)CC5)c(O)c4c3C2=O)NC(=O)/C(C)=C\C=C\[C@H](C)[C@H](O)[C@@H](C)[C@@H](O)[C@@H](C)[C@H](OC(C)=O)[C@@H]1C | MTT | A549 cells | >50 µg/mL
CN1C[C@@H](O)[C@@H](O)[C@H]1[C@@H](O)CO | - | Karpas 45 cells | >300 µg/mL
O=c1c2cc(O)ccc2oc2cc(O)cc(O)c12 | sulforhodamine / absorbance | ASK (Atlantic salmon kidney) | >50 µM
Cc1cccc2c1OP(=O)(OC[C@H]1O[C@@H](n3cc(/C=C/Br)c(=O)[nH]c3=O)C[C@@H]1OC(=O)CN)OC2 | - | HELF | 87 µg/mL
CN(C)C(=O)Nc1c([N+](=O)[O-])cc(C(F)(F)F)cc1[N+](=O)[O-] | - | VERO | 36 µg/mL
COc1nc(OC(F)(F)F)c(NC(=O)C2CCC3C4CN(C(=O)OC(C)(C)C)C5=CC(=O)CC[C@]5(C)C4CC[C@]23C)cc1Br | ATP / luminescence | THP-1 | >30 µM
O=c1[nH]c(=O)n([C@@H]2O[C@H](CO)[C@@H](O)[C@@H]2O)cc1/C=C/Br | - | SupT1 | >250 µg/mL
CN(C)CCNC(=O)c1cccc2nc3c(ccc4ccccc43)nc12.Cl | - | VERO | 0.63 µg/mL
O=C(O)C1=CC(=C(c2ccc(O)c(C(=O)O)c2)c2ccc(O)c(C(=O)O)c2)C=CC1=O | - | CD4+ T lymphocytes | 100 µg/mL
CN(C)C(=S)SSC(=S)N(C)C | - | VERO | 0.2 µg/mL
Cc1ccccc1C(=O)Nc1cccc(Cn2nc(C(N)=O)c3ccccc32)c1 | MTT | Huh7.5.1 | 10.31 µM
Nc1ncnc2c1ncn2CC(CF)OCP(=O)(O)O | - | HB611 | >200 µM
O=c1cc(-c2ccc(O)c(-c3c(O)cc(O)c4c(=O)cc(-c5ccc(O)cc5)oc34)c2)oc2cc(O)cc(O)c12 | neutral red | MA-104 | ~56 µg/mL
O=C1c2ccccc2C(=O)c2sc(Nc3ccccc3Cl)nc21 | - | VERO | 2.8 µg/mL
C[C@H](Cn1cnc2c(N)ncnc21)OCP(=O)(O)O | - | CD4+ T lymphocytes | >250 µg/mL
OC[C@H](O)[C@@H]1[C@@H](O)[C@@H](O)CN1Cc1ccccc1 | - | Karpas 45 cells | >100 µg/mL
COc1ccc(-c2cc(OC)c(O)c(OC)c2O)cc1 | sulforhodamine / absorbance | ASK (Atlantic salmon kidney) | >50 µM
O=C1NCc2c1c1c3ccccc3[nH]c1c1[nH]c3ccccc3c21 | - | Akata | 3.14 µM
CCN(CC)CC(O)CNc1ccc(C)c2sc3ccccc3c(=O)c12 | - | VERO | 7 µg/mL
Nc1ncnc2c1ncn2[C@H]1CC[C@@H](CO)O1 | - | MDBK | <50 µM
Cc1cccc2c1OP(=O)(OC[C@H]1O[C@@H](n3cc(/C=C/Br)c(=O)[nH]c3=O)C[C@@H]1OC(=O)[C@H]1CCCN1)OC2 | - | HELF | >128 µg/mL
CN(C)c1cccc2c(Cl)c(Cl)c3cccc(N(C)C)c3c12 | - | VERO | >10 µg/mL
Nc1ncc2c(ncn2COC(CO)CO)n1 | - | CD4+ T lymphocytes | 1.3 µg/mL
OC[C@H]1O[C@@H](n2cnc3c(NC4CC4)ncnc32)[C@H](O)[C@@H]1O | MTT | Sheep chondrocytes G81092 | 105 µM
CC(OCn1cnc2cnc(N)nc21)OCP(=O)(O)O | - | HB611 | 92 µM
O=c1cc(-c2ccc(Oc3c(O)cc4oc(-c5ccc(O)cc5)cc(=O)c4c3O)cc2)oc2cc(O)cc(O)c12 | visual reading | MDCK | 1.2 µg/mL
OC[C@@H]1CC[C@H](n2cnc3c(NC4CCCCCC4)nc(Cl)nc32)O1 | MTT | Sheep chondrocytes G81092 | 125 µM
C[N+]1(CC[N+]2(C)CCN(c3ncnc(Cl)c3[N+](=O)[O-])CC2)CCN(c2ncnc(Cl)c2[N+](=O)[O-])CC1 | - | GMK | >627.2 µg/mL
OC[C@H]1[C@H](O)[C@H](O)CN1Cc1ccccc1 | - | Karpas 45 cells | >100 µg/mL
CCCCCCCCCCCCSCC(COP(=O)([O-])OCC[N+](C)(C)C)OCCCCCCCCC(=O)OCC(=O)OC[C@H]1O[C@@H](n2cc(C)c(=O)[nH]c2=O)C[C@@H]1N=[N+]=[N-] | neutral red | MRC-9 | >100 µM
COc1cc(O)cc2oc3cc(O)c(O)cc3c(=O)c12 | sulforhodamine / absorbance | ASK (Atlantic salmon kidney) | >50 µM
CCN(CCO)CCNc1ccc(C)c2sc3cc(Cl)ccc3c(=O)c12 | - | VERO | 4.7 µg/mL
CC(=O)OC(C1C=C(C)C(=O)O1)C(C)C1C2C3(O)OC4(CCC12C)C(=CCC1C(C)(C)OC2CC(=O)OC21C4O)C3=O | MTT | HL-60 | 6.75 µg/mL
Nc1ncnc2c1ncn2CCOCP(=O)(O)O | - | CD4+ T lymphocytes | 54 µg/mL
OC[C@H]1O[C@@H](n2cnc3c(NC4CCCC4)nc(Cl)cc32)[C@H](O)[C@@H]1O | - | Sheep chondrocytes G81092 | 205 µM
Nc1ncnc2c1ncn2CCOCCP(=O)(O)O | - | HB611 | >400 µM
CN1C[C@H](O)[C@@H](O)[C@@H]1CO | - | Karpas 45 cells | >100 µg/mL
O=[N+]([O-])c1c(Cl)ncnc1N1CC[N+]2(CC1)CC[N+]1(CCN(c3ncnc(Cl)c3[N+](=O)[O-])CC1)CC2 | - | GMK | 708.8 µg/mL
O[C@H]1[C@H](O)[C@@H](O)CN2CC[C@H](O)[C@H]12 | - | Karpas 45 cells | >400 µg/mL
CN1CCc2cc3c(cc2[C@H]1[C@H]1OC(=O)c2c1ccc1c2OCO1)OCO3 | - | Vero cells | >10 µg/mL
COc1ccc(C(=O)Nc2cccc(Cn3nc(C(N)=O)c4ccccc43)c2)cc1 | MTT | Huh7.5.1 | >10 µM
N=c1ncn(CC(CO)OCP(=O)(O)O)c2nc[nH]c12 | - | HB611 | >200 µM
CCCCOc1ccc(Nc2c[nH]c(=O)[nH]c2=O)cc1 | MTT | Vero cells | >50 µg/mL
NC(=O)c1[nH]c2ccc(Cl)cc2c1S(=O)(=O)c1ccccc1 | - | Macrophage | >20 µM
Cc1nccc2c(C)c3sc4ccccc4c3cc12 | - | VERO | 1.03 µg/mL
N#Cc1ccc(N2CC[N+]3(CC2)CC[N+]2(CCN(c4ccc(C#N)cc4[N+](=O)[O-])CC2)CC3)c([N+](=O)[O-])c1 | - | GMK | >339.3 µg/mL
CCCCCCCCCCCCSCC(COP(=O)([O-])OCC[N+](C)(C)C)OCCCCCCCCO | neutral red | MRC-9 | >100 µM
O=C1c2ccccc2C(=O)c2sc(Nc3ccccc3C(F)(F)F)nc21 | - | VERO | 8 µg/mL
OC[C@H]1O[C@@H](n2cnc3c(NC4CC4)nc(Cl)nc32)[C@H](O)[C@@H]1O | - | MDBK | 359 µM

Repeating the final 5 entries:

compound | read by | cell line | result
Cc1nccc2c(C)c3sc4ccccc4c3cc12 | - | VERO | 1.03 µg/mL
N#Cc1ccc(N2CC[N+]3(CC2)CC[N+]2(CCN(c4ccc(C#N)cc4[N+](=O)[O-])CC2)CC3)c([N+](=O)[O-])c1 | - | GMK | >339.3 µg/mL
CCCCCCCCCCCCSCC(COP(=O)([O-])OCC[N+](C)(C)C)OCCCCCCCCO | neutral red | MRC-9 | >100 µM
O=C1c2ccccc2C(=O)c2sc(Nc3ccccc3C(F)(F)F)nc21 | - | VERO | 8 µg/mL
OC[C@H]1O[C@@H](n2cnc3c(NC4CC4)nc(Cl)nc32)[C@H](O)[C@@H]1O | - | MDBK | 359 µM

CCn: concentration that lowers growth or viability of the cells by n%. Blank or dashed fields: not listed here.